From ChEMBL document CHEMBL1687735, “Resistance to colistin in Acinetobacter baumannii associated with mutations in the PmrAB two-component system” (Antimicrob Agents Chemother, 2009)

Experiments:
Acinetobacter baumannii [1] = settings: AB060
Acinetobacter baumannii [2] = settings: MAC203
Acinetobacter baumannii [3] = settings: AB060; remark: listed apart in the source
Acinetobacter baumannii [4] = settings: AB060; remark: listed apart in the source
Acinetobacter baumannii [5] = settings: MAC101
Acinetobacter baumannii [6] = settings: MAC201
Acinetobacter baumannii [7] = settings: MAC203; remark: listed apart in the source
Acinetobacter baumannii [8] = settings: MAC201; remark: listed apart in the source
Acinetobacter baumannii [9] = settings: MAC102
Acinetobacter baumannii [10] = settings: ACCA152
Acinetobacter baumannii [11] = settings: MAC203; remark: listed apart in the source
Acinetobacter baumannii [12] = settings: MAC101; remark: listed apart in the source
Acinetobacter baumannii [13] = settings: MAC203; remark: listed apart in the source
Acinetobacter baumannii [14] = settings: ACCA152; remark: listed apart in the source
Acinetobacter baumannii [15] = settings: MAC103
Acinetobacter baumannii [16] = settings: MAC102; remark: listed apart in the source
Acinetobacter baumannii [17] = settings: MAC203; remark: listed apart in the source
Acinetobacter baumannii [18] = settings: MAC103; remark: listed apart in the source
Acinetobacter baumannii [19] = settings: MAC201; remark: listed apart in the source
Acinetobacter baumannii [20] = settings: MAC103; remark: listed apart in the source
Acinetobacter baumannii [21] = settings: MAC103; remark: listed apart in the source
Acinetobacter baumannii [22] = settings: AB060; remark: listed apart in the source
Acinetobacter baumannii [23] = settings: MAC201; remark: listed apart in the source
Acinetobacter baumannii [24] = settings: MAC203; remark: listed apart in the source

COLISTIN SULFATE
MIC (Acinetobacter baumannii [1]): 0.25 µg/mL | MIC (Acinetobacter baumannii [2]): 0.5 µg/mL | MIC (Acinetobacter baumannii [3]): 0.5 µg/mL | MIC (Acinetobacter baumannii [4]): 1 µg/mL | MIC (Acinetobacter baumannii [5]): > 128 µg/mL | MIC (Acinetobacter baumannii [6]): 128 µg/mL | MIC (Acinetobacter baumannii [7]): 1 µg/mL | MIC (Acinetobacter baumannii [8]): 64 µg/mL | MIC (Acinetobacter baumannii [9]): 4 µg/mL | MIC (Acinetobacter baumannii [10]): > 128 µg/mL | MIC (Acinetobacter baumannii [11]): 2 µg/mL | MIC (Acinetobacter baumannii [12]): 32 µg/mL | MIC (Acinetobacter baumannii [13]): 4 µg/mL | MIC (Acinetobacter baumannii [14]): 24 µg/mL | MIC (Acinetobacter baumannii [15]): 1 µg/mL | MIC (Acinetobacter baumannii [16]): 64 µg/mL | MIC (Acinetobacter baumannii [17]): 4 µg/mL | MIC (Acinetobacter baumannii [18]): 0.5 µg/mL | MIC (Acinetobacter baumannii [19]): 16 µg/mL | MIC (Acinetobacter baumannii [20]): 128 µg/mL | MIC (Acinetobacter baumannii [21]): 1 µg/mL | MIC (Acinetobacter baumannii [22]): 1 µg/mL | MIC (Acinetobacter baumannii [23]): 128 µg/mL | MIC (Acinetobacter baumannii [24]): 0.5 µg/mL
